Experimental data published in PubChem BioAssay AID488895 (Broad Institute, 2010).
This is a selection; strong and weak results do not stand in their true shares. Active and inactive are the calls of the source.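 Rule for the calls: active = mean replicate inhibition at least 50% and at least half of replicates individually reaching 50%; inconclusive = only one of the two criteria met; inactive = neither criterion met.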

experiment: blockers of twin-arginine translocation in E. coli – MC4100, TorA-mCherry reporter, fluorescence, single point, primary screen (AID 488895);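 note: exported cargo escapes ClpAP degradation while cytoplasmic cargo is degraded and loses fluorescence; 0% = median of neutral control wells and 100% = median of NaSCN control wells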; conditions: E. coli MC4100 TorA-mCherry Tat export, at 10 µM, hits give high values

Structure (SMILES) | inhibition
O=C(Nc1ccncc1[N+](=O)[O-])c1ccc([N+](=O)[O-])cc1[N+](=O)[O-] | inactive: -8.98%
O=C(COc1ccccc1)OC1CN2CCC1CC2 (configuration not stated) | inactive: -5.98%
COP1(=S)c2c(C)nn(CCC#N)c2N=C(c2ccc(F)cc2)N1C (configuration not stated) | inactive: -1.46%
CCC(C)N(CC(C)C)C(=S)SC(NC(C)=O)C(Cl)(Cl)Cl (configuration not stated) | inactive: 2.49%
O=C(OC1CN2CCC1CC2)c1cccc([N+](=O)[O-])c1 (configuration not stated) | inactive: 2.35%
CCOC(=O)c1ccc(NC(=O)C(C)(CCl)SC)cc1 (configuration not stated) | inactive: 3.69%
Cc1cc(SC(NC(=O)c2ccccc2)C(Cl)(Cl)Cl)nc(C(C)C)n1 (configuration not stated) | inactive: -11%
CCCCOc1ccc(C(=O)NCC2(N3CCCCC3)CCCCC2)cc1OC | inactive: 16.2%
CCOC(=O)Nc1ccc([As](=O)(O)O)c(O)c1 | inactive: -12.8%
CC1CCNP(=O)(N(CCCl)CCCl)O1 (configuration not stated) | inactive: 0.395%
Cc1cc(SC(NC=O)C(Cl)(Cl)Cl)ncn1 (configuration not stated) | inactive: -4.72%
O=P(Nc1ccccn1)(c1cccc2ccccc12)c1cccc2ccccc12 | inactive: 1.16%
O=[N+]([O-])c1ccc(Nc2ccc(Oc3ccc([N+](=O)[O-])cc3[N+](=O)[O-])cc2)c([N+](=O)[O-])c1 | inactive: -6.93%
CCOC(=O)Nc1cccc([As](=O)(O)O)c1 | inactive: -5.65%
Cc1ccc(OP(=O)(Nc2ccc([N+](=O)[O-])cn2)Oc2ccc(C)cc2)cc1 | inactive: 3.83%
Cc1ccc2nc3c(c(C)c2c1)CC(C(Cl)Cl)S3 (configuration not stated) | inactive: -3.98%
O=[N+]([O-])c1ccc(-c2cc([N+](=O)[O-])c(O)c([N+](=O)[O-])c2)cc1 | inactive: -5.18%
COc1cc(C(=O)NCC2(N3CCOCC3)CCCCC2)ccc1OCC(C)C | inactive: 0.718%
O=[As](O)(c1ccc(O)cc1)c1ccccc1O | inactive: -2.54%
C[As](=O)(O)c1cccc(C(=O)O)c1 | inactive: -6.48%
O=[N+]([O-])c1cc([N+](=O)[O-])c(-c2ccn[nH]2)s1 | inactive: -5.53%
CC(C)NC(=O)NP(=O)(Oc1ccccc1)Oc1ccccc1 | inactive: -3.76%
O=C(OC1CN2CCC1CC2)c1cccc2[nH]cnc12 (configuration not stated) | inactive: 5.4%
CCN(CC)C(=S)SC(NC=O)C(Cl)(Cl)Cl (configuration not stated) | inactive: -17.5%
ClCCSc1nnc(-c2cccnc2)o1 | inactive: 0.731%
COC(=O)C1(C)COP(=O)(N2CCCCCC2)OC1 (configuration not stated) | inactive: -1.72%
CC(C)c1ccc(OP(=O)(Nc2ccccn2)Oc2ccccc2F)cc1 (configuration not stated) | inactive: 2.22%
